The exact form of at least one protein or probe is not confirmed. Where cells or extracts were used, other partners may take part. Tags and fusion partners may be left off the protein sequences shown.

This data set addresses T1, RepTZAD (Rep 1-244 fusion) (UniProt Q89268).
T1 sequence (looked up): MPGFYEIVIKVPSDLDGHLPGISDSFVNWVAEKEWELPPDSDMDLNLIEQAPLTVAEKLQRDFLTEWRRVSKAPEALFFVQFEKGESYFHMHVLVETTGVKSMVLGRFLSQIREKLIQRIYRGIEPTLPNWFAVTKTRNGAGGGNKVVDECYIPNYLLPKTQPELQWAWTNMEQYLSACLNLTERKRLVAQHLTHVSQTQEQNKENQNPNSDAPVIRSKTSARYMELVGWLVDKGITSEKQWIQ
The experiment in a line: one hybrid. The note with it: positive control in yeast; protein in cells.

As to “AGCTTCAGTGAGCGAGCGAGCGCGCAGGTTCGAAGTGAGCGAGCGAGCGCGCAGGTGAGCGAGCGAGCGCGCAGC (double strand) [three tandem RRS upstream of LacZ (YM.RRS3.LacZ)]”, the binding result is “binds”.

For the origin of these results see patent US20020182595, “Method of identifying cellular regulators of adeno-associated virus (AAV)” (published 2002).
